Measured values from several laboratories, pooled; numbers as filed in NIAID ChemDB.

All rows: enzyme or target tests; species: HIV-1; target: Protease; measure: IC50

ICn is the concentration giving n% inhibition. Blank or dashed fields: not listed here. Two numbers with a dash give a range or band. Lines come from different laboratories, so protocols vary.

structure	changes	method	setting	value
O=C(O)c1cc2ccccc2c(N=Nc2c(O)cc(S(=O)(=O)O)c3ccccc23)c1O	-	HPLC	-	20 µM
CC(C)(C)NC(=O)C1(CCc2ccccc2)OC(=O)C(CCc2ccccc2)=C1O	-	fluorescence	-	3 µM
O=S1(=O)[C@H](Cc2ccccc2)[C@H](OCc2cncs2)[C@H](O)[C@@H](O)[C@@H](OCc2cncs2)[C@H]1Cc1ccccc1	-	fluorescence	-	<2 µM
O=c1cc(O)c2ccccc2o1	-	HPLC	pH 5.2	160 µM
CCN(Cc1cccc(S(=O)(=O)[O-])c1)c1ccc(C(=C2C=CC(=[N+](CC)Cc3cccc(S(=O)(=O)O)c3)C=C2)c2ccc(S(=O)(=O)O)cc2)cc1	-	HPLC	-	8 µM
Cc1cc(C)cc(O[C@@H]2[C@H](O)[C@@H](O)[C@@H](Oc3cc(C)cc(C)c3)[C@@H](Cc3ccccc3)S(=O)(=O)[C@@H]2Cc2ccccc2)c1	-	fluorescence	-	<2 µM
COc1ccc(Cc2c(O)c3cccc(C)c3oc2=O)cc1OC	-	HPLC	pH 5.2	23 µM
O=S1(=O)[C@H](Cc2ccccc2)[C@H](OCc2cccc(OCc3ccccc3)c2)[C@H](O)[C@@H](O)[C@@H](OCc2cccc(OCc3ccccc3)c2)[C@H]1Cc1ccccc1	-	fluorescence	-	<2 µM
CC(=O)N[C@H](CSc1ccc2ccccc2c1)C(=O)N[C@@H](Cc1ccccc1)[C@H](O)C(=O)N1CSC(C)(C)[C@H]1C(=O)NCc1ccccc1C	-	-	-	<0.001 µM
CC(C)[C@H](NC(=O)N(C)Cc1ccccn1)C(=O)N[C@@H](Cc1ccccc1)[C@H](O)[C@H](O)[C@H](Cc1ccccc1)NC(=O)[C@@H](NC(=O)N(C)Cc1ccccn1)C(C)C	PR-V82A	HPLC	-	0.0061 µM
O=C(O)c1cc(N=Nc2ccc(N=Nc3ccc(S(=O)(=O)O)cc3)cc2)ccc1O	-	HPLC	-	34 µM
O=C(CCc1ccccc1)C(F)(F)Cc1ccccc1	-	fluorescence	-	<270 µM
O=c1oc(-c2ccccc2)cc(O)c1Sc1ccccc1	-	HPLC	pH 5.2	3.5 µM
CC(C)[C@H](NC(=O)OCc1ccccc1)C(=O)N[C@@H](Cc1ccccc1)[C@H](O)[C@H](O)[C@H](Cc1ccccc1)NC(=O)OC(C)(C)C	-	fluorescence	-	<0.005 µM
O[C@@H]1[C@@H](O)[C@@H](OCc2ccccc2)[C@@H](Cc2ccccc2)S[C@H](Cc2ccccc2)[C@@H]1OCc1ccccc1	-	fluorescence	-	2–10 µM
O=C(CCCN1CCC(O)(c2cccc(NC3CCCCC3)c2)CC1)c1ccc(F)cc1	-	-	-	115 µM
Cc1nc(CO[C@@H]2[C@H](O)[C@@H](O)[C@@H](OCc3csc(C)n3)[C@@H](Cc3ccccc3)S(=O)(=O)[C@@H]2Cc2ccccc2)cs1	-	fluorescence	-	<2 µM
CO[C@@H](Cc1ccccc1)C(F)(F)C(=O)[C@H](Cc1ccccc1)NC(=O)[C@@H](NC(=O)OCc1ccccc1)C(C)C	-	fluorescence	-	>0.01 µM
O=c1cc(O)cc(-c2ccccc2)o1	-	HPLC	pH 5.2	>200 µM
O=S(=O)(O)c1cc(O)c(N=Nc2ccc3c(S(=O)(=O)O)cccc3c2O)cc1Cl	-	HPLC	-	68 µM
O=C(CCCN1CCC(O)(c2ccc(NC3CCCCC3)cc2)CC1)c1ccc(F)cc1	-	-	-	120 µM
O=S(=O)(O)c1cc(Br)ccc1N=Nc1c(S(=O)(=O)O)cc2cc(S(=O)(=O)O)c(N=Nc3ccc(Br)cc3S(=O)(=O)O)c(O)c2c1O	-	HPLC	-	4 µM
Cc1ccc(CO[C@@H]2[C@H](O)[C@@H](O)[C@@H](OCc3ccc(C)cn3)[C@@H](Cc3ccccc3)S(=O)(=O)[C@@H]2Cc2ccccc2)nc1	-	fluorescence	-	2–10 µM
O=S(=O)(O)c1cc(O)c2c(O)c(N=Nc3ccccc3)c(S(=O)(=O)O)cc2c1	-	HPLC	-	590 µM
COc1cc(C(O)C(C)Oc2ccc([C@@H]3O[C@H](c4ccc(O)c(OC)c4)[C@@H](C)[C@@H]3C)cc2OC)ccc1O	-	substrate cleavage	-	>125 µM
CCCCNc1cccc(C2(O)CCN(CCCC(=O)c3ccc(F)cc3)CC2)c1	-	-	-	170 µM
CC(C)(C)OC(=O)N[C@@H](Cc1ccccc1)[C@H](O)CNC[C@@H](O)[C@H](Cc1ccc(OCC(=O)N2CCOCC2)cc1)NC(=O)OC(C)(C)C	PR-A71T	HPLC	-	0.059 µM
CN(C)c1nc(CO[C@@H]2[C@H](O)[C@@H](O)[C@@H](OCc3csc(N(C)C)n3)[C@@H](Cc3ccccc3)S(=O)(=O)[C@@H]2Cc2ccccc2)cs1	-	fluorescence	-	<2 µM
Nc1ccc2cc(S(=O)(=O)O)cc(O)c2c1N=Nc1ccc(NC(=O)Nc2ccc(N=Nc3c(N)ccc4cc(S(=O)(=O)O)cc(O)c34)c(S(=O)(=O)O)c2)cc1S(=O)(=O)O	-	HPLC	-	200 µM
COc1ccc(C(O)C(C)Oc2ccc([C@H]3O[C@H](c4ccc(OC(C)C(O)c5ccc6c(c5)OCO6)c(OC)c4)[C@H](C)[C@H]3C)cc2OC)cc1OC	-	substrate cleavage	-	>125 µM
O=S1[C@H](Cc2ccccc2)[C@H](OCc2ccccc2)[C@H](O)[C@@H](O)[C@@H](OCc2ccccc2)[C@@H]1Cc1ccccc1	-	fluorescence	-	2–10 µM
O=C(CCCN1CCC(O)(c2ccc(Cl)cc2)CC1)c1ccc(N2CCCCC2)cc1	-	-	-	>200 µM
CC(C)[C@H](NC(=O)OCc1ccccn1)C(=O)NC(Cc1ccccc1)C(O)C(F)(F)C(N)Cc1ccccc1	-	fluorescence	-	~0.1 µM
CCCCN(CCCC)c1ccc(C(=O)CCCN2CCC(O)(c3ccc(Cl)cc3)CC2)cc1	-	-	-	>200 µM
O=C(Nc1ccc2c(O)c(N=Nc3ccccc3)c(S(=O)(=O)O)cc2c1)Nc1ccc2c(O)c(N=Nc3ccc(C(=O)O)cc3)c(S(=O)(=O)O)cc2c1	-	HPLC	-	4 µM